Data on one molecule can be found in PMC11042316, “Tetracistronic Minigenomes Elucidate a Functional Promoter for Ghana Virus and Unveils Cedar Virus Replicase Promiscuity for all Henipaviruses” (2024).

By UniProt entry, the sequences of proteins in these tests, tags left out. Where a name states a change or a piece, a line headed by the entry shows the natural chain unless it says otherwise.
UniProt Q997F0: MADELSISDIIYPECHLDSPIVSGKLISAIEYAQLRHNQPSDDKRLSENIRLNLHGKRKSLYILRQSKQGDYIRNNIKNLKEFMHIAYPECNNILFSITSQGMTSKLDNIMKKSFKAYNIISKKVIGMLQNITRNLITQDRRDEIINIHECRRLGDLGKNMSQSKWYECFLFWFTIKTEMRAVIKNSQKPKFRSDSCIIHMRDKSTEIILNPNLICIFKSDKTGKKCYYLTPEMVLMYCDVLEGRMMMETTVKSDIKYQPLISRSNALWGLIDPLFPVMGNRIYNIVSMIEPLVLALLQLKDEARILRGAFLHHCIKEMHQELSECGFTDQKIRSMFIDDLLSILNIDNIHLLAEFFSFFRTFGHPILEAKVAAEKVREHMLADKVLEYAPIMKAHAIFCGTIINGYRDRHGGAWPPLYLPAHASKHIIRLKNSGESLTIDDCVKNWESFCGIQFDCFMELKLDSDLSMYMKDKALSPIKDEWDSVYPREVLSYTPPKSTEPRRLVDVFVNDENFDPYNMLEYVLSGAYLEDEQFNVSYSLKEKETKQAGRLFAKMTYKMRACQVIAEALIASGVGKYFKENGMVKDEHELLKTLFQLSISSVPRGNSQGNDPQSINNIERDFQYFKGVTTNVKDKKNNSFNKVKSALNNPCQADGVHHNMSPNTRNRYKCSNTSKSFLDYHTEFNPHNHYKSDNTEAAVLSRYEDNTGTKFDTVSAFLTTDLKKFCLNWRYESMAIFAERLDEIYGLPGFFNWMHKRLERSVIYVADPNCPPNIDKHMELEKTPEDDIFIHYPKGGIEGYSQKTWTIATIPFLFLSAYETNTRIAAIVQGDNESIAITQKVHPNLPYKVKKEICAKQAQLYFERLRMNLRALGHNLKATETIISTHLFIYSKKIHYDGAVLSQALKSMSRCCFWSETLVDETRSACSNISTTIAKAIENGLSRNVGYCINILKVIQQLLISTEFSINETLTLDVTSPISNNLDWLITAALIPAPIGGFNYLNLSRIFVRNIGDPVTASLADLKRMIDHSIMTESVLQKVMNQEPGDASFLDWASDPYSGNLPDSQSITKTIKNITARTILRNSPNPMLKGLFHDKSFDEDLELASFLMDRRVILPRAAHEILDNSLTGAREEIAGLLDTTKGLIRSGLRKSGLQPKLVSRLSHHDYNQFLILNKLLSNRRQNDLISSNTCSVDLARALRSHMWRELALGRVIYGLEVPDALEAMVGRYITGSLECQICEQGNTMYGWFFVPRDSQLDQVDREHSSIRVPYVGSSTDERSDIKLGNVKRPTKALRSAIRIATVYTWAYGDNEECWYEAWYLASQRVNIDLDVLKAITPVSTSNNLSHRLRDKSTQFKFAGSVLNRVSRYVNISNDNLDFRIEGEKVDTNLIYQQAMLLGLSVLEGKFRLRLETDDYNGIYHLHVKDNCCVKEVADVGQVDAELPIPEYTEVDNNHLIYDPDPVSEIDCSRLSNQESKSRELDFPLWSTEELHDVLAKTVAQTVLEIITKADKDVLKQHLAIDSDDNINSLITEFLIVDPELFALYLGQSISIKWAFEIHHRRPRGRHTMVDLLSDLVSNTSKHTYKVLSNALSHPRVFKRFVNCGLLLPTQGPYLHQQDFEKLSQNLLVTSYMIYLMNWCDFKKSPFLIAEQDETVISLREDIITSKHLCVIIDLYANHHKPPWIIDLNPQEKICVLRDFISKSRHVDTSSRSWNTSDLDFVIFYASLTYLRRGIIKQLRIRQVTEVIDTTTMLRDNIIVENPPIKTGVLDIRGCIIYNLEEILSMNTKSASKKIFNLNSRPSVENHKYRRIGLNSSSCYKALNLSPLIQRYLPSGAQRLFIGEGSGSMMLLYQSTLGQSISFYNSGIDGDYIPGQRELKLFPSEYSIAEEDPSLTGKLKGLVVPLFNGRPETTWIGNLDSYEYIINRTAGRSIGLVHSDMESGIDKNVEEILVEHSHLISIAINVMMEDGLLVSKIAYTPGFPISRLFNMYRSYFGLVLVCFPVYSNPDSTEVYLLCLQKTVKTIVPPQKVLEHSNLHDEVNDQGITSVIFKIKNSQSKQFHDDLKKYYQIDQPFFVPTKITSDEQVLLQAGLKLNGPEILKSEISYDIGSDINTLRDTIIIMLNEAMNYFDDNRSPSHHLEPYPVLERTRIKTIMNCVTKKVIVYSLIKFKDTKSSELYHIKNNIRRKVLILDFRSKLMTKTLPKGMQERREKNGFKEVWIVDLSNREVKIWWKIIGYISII

The experiment has as its target NiV vRdRp / replicase (NiV-N, -P, -L) (Henipavirus nipahense, UniProt Q997F0).

Regarding `O=c1ccn([C@@H]2O[C@](F)(CO)[C@@H](O)[C@H]2O)c(=O)[nH]1`, the IC50 (as a rule, the midpoint of a concentration-inhibition curve) is 3.6 µM.
